Experimental data reported in publication PMC3164629.

Chains of the proteins cited; added tags and fusions are not shown. A line that says so, or that is headed by a name, gives the form on record, which may keep a tag or linker.
human mAb 2F5 (human), light, as listed by the source, chain 2 of 2: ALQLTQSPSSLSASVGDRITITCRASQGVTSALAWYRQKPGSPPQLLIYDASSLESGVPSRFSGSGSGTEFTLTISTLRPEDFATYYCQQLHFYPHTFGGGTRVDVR
human mAb 2F5 (human), heavy, as listed by the source, chain 1 of 2: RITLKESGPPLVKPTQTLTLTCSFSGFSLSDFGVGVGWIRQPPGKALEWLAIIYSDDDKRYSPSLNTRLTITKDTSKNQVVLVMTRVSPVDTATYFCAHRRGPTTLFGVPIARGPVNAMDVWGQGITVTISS

Target: human mAb 2F5 (human)
Assay: SPR

Substance: CON-S gp140CFI Env, natively deglycosylated with PNGase F 500 U per µg
- fold enhancement of Kd against WT glycosylated CON-S gp140: 4 fold
